{"sequences": {"note": "Sequences of proteins named here, by UniProt entry; tags and fusion partners are left off.", "UniProt P06709, whole entry": "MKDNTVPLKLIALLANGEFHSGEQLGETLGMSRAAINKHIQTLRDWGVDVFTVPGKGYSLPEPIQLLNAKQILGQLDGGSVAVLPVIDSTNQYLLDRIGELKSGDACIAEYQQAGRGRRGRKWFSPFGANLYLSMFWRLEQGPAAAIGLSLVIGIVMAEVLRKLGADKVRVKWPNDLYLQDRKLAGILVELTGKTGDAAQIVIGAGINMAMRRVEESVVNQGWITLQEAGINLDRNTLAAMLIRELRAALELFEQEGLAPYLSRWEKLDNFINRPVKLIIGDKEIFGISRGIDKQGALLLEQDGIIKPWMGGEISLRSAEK"}, "source": "paper PMC4382993", "key": {"BirA": {"molecular_target": "BirA (UniProt P06709)", "experiment": "EMSA and competition", "details": "20 uM biotin, 1 mM ATP, 5 mM Mg2+, BirA EMSA: 1 mM Tris-HCl pH 7.5, 0.1 mM EDTA, 0.2 mM DTT, 5 mM MgCl2, 10 mM KCl, 1 mM ATP (DIG Gel Shift Kit), recombinant protein, residues 1-321, protein details: N-terminal 6xHis, label: DIG, probe letters rebuilt from the primers and the genome"}, "Fur": {"molecular_target": "T1, Fur (UniProt P0A9B1)", "T1 sequence (looked up)": "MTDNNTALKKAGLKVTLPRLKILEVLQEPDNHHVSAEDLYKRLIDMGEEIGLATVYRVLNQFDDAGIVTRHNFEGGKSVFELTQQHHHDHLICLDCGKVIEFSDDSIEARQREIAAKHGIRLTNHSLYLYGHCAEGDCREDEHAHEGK", "experiment": "EMSA", "details": "100 uM Mn2+; BirA EMSA: 1 mM Tris-HCl pH 7.5, 0.1 mM EDTA, 0.2 mM DTT, 5 mM MgCl2, 10 mM KCl, 20 uM biotin, 1 mM ATP (DIG Gel Shift Kit); recombinant protein; residues 1-148; protein details: N-terminal 6xHis; probe letters rebuilt from the primers and the genome"}}, "note": "For some of these results: Tags and fusion partners may be left off the protein sequences shown. For some of these results: For at least one entry, the source does not settle the construct or the ends of the probe."}
{"sequence": "CTTTCTTTAGGGCGGTATTGTTATCAGTCATGCGGAATCTGGTCCTGTTACTAAGCGGTTCACTTCATTAGAAGAAGTGACAGAATTTGCTCTTGAGATAATGCGGTATCATTATAGAATTGCCACGCCTAAATGAAAACCACAAGTCCCTGGCAAATATTGTTAATAAAAACGTGGCACAGCTTACATTTACAACGGCAAGGCCACTTGAACACCGGGACATTGTACAGGTACAACGGCAAAAGTTACAAATTTGTAGCAATTATTTTGATTGGCATTATCTATTAATACGGCGTAGACATGAGTCTACGCCGCATCACATCAGGCATTGA (double strand) [fur promoter (O55)]", "values": [{"measurement": "binding result", "setting": "BirA", "result": "binds"}]}
{"sequence": "CTTTCTTTAGGGCGGTATTGTTATCAGTCATGCGGAATCTGGTCCTGTTACTAAGCGGTTCACTTCATTAGAAGAAGTGACAGAATTTGCTCTTGAGATAATGCGGTATCATTATAGAATTGCCACGCCTAAATGAAAACCACAAGTCCCTGGCAAATATTGTTAATAAAAACGTGGCACAGCTTACATTTACAACGGCAAGGCCACTTGAACACCGGGACATTGTACAGGTACAACGGCAAAAGTTACAAATTTGTAGCAATTATTTTGATTGGCATTATCTATTAATACGGCGTAGACATGAGTCTACGCCGCATCACATCAGGCATTGA (double strand) [fur promoter (O157)]", "values": [{"measurement": "binding result", "setting": "BirA", "result": "binds"}]}
{"sequence": "GCCCACCAGGACGACATACCGTCAACCAGGCGTCTGCCGTCAGACAAAATTAGCTCGCAACCTTCGGCGCTCGCCACCGGATAAACCGGTAGCGGGGAGGTCATGGATGTGTATGGGTGCCAGATATGGCGTTGGTCAAAGGCAAGATCGTCCGTTGTCATAATCGACTTGTAAACCAAATTGAAAAGATTTAGGTTTACAAGTCTACACCGAATTAACAACAAAAAACACGTTTTGGAGAAGCCCCATGGCTCACCGCCCACGCTGGACATTGTCGCAAGTCACAGAATTATTTGAAAAACCGTTGCTGGATCTGCTGTTTGAAGCGCAGCAGGTGCATCGCCAGCATTTCGATCCTCGTCAGGTGCAGGTCAGCACCTTGCTGTCGATTAAGACCGGAGCTTGTCCGGAAGATTGCAAATACTGCCCGCAAAGC (double strand) [bioO]", "values": [{"measurement": "binding result", "setting": "BirA", "result": "binds"}]}
{"sequence": "TTCGTCATTCAGACGCTGCCATTCCGGGCCATGTTTCGACTGCCACCAGCTCTCACTTCCTACTTTTAACGCCGTCACACCATAACCCCATGTTTACTGTGCAATTTTTCATTGATTGCAGAAATATATTGATAATATTATTGATAACTATTTGCATTTGCAATAGCGTAATGGCGCGCCGTGGGAAGCGCGGACATTAATTAACCAACTGCACTGCGTGTCTTTCAGGATCAAAGGTTTTCGCGGTAGCGGGATGCGTCGTGTTGATGACGACCATGCCCGACAGTTGCAATTCGTGGCAAAAATGCAGGAATAAAACA (double strand) [fepA promoter]", "values": [{"measurement": "binding result", "setting": "Fur", "result": "binds"}]}
